Compound potency records, mixed from different reports. Data source: NIAID ChemDB in PubChem.

All rows: enzyme or target tests

Blank or dashed fields: not listed here. Fold resistance: result on the changed form divided by that on wild type. Rows are shuffled and stem from different studies. ICn is the concentration giving n% inhibition. Percent inhibition refers to the dose given; in toxicity tests it is the harm to the cells. Two numbers with a dash give a range or band.

| smiles | method | protein | agent | read-out | dose | mutations | strain | result |
|---|---|---|---|---|---|---|---|---|
| CCCCCCCC/C=C/CCCCCCCC(=O)Nc1nnc(NCc2ccc(S(N)(=O)=O)cc2)s1 | - | Polymerase | Human cytomegalovirus | IC50 | - | - | - | <25 µM |
| NC(=O)c1ncn([C@@H]2O[C@H](COP(=O)(O)O)[C@@H](O)[C@H]2O)n1 | - | RNA polymerase | Simian rotavirus | inhibition | 500 µM | - | - | 0% |
| O=C(Nc1nnc(NCC2CCCCC2)s1)c1ccc([N+](=O)[O-])o1 | - | Polymerase | Human cytomegalovirus | IC50 | - | - | - | >25 µM |
| Cc1cn([C@H]2C=C[C@@H](COP(=O)(O)OP(=O)(O)OP(=O)(O)O)O2)c(=O)[nH]c1=O | nucleotide incorporation / radiometric | Reverse transcriptase | HIV | fold resistance | - | RT-N137D | - | 8.4 |
| Cc1ccc(C(=O)Nc2nnc(NCCNc3ccccc3)s2)cc1 | - | Polymerase | Human cytomegalovirus | IC50 | - | - | - | >25 µM |
| CCCCCCCC(C(=O)O)P(=O)(O)O | - | DNA polymerase | Duck hepatitis B virus | IC50 | - | - | - | >100 µM |
| Nc1nc(N)c2c(n1)CCC(Cc1cccc(C(F)(F)F)c1)C2 | - | Dihydrofolate reductase | Cryptosporidium parvum | IC50 | - | - | - | 3.84 µM |
| CCc1cn([C@@H]2O[C@H](CO)[C@@H](O)[C@@H]2O)c(=O)[nH]c1=O | - | Thymidine kinase | Varicella zoster virus | Ki | - | - | - | 4.99 µM |
| CC(C)Cn1c(=O)n(C)c(=O)c2[nH]cnc21 | - | Phosphoribosyltransferase | Toxoplasma gondii | inhibition | 900 µM | - | RH | <10% |
| O=c1[nH]c(=O)n([C@@H]2O[C@H](CO)[C@@H](O)[C@@H]2O)cc1/C=C/Br | - | Thymidine kinase | Varicella zoster virus | Ki | - | - | - | 0.25 µM |
| O=C(O)C(CCCc1ccccc1)P(=O)(O)O | - | DNA polymerase | Duck hepatitis B virus | IC50 | - | - | - | >100 µM |
| Cc1cn([C@@H]2O[C@H](CO[Si](C)(C)C(C)(C)C)C3(OS(=O)(=O)C=C3N)[C@H]2O[Si](C)(C)C(C)(C)C)c(=O)n(C)c1=O | nucleotide incorporation / radiometric | Reverse transcriptase | HIV | IC50 | - | RT-N137A | - | 0.9 µM |
| Cc1cc(NS(=O)(=O)c2ccc(N)cc2)no1 | HPLC | Oxidosqualene cyclase | Pneumocystis carinii | IC50 | - | - | - | 440 µM |
| O=C(O)CCCCCCCCCCC(C(=O)O)P(=O)(O)O | - | DNA polymerase | Duck hepatitis B virus | IC50 | - | - | - | >100 µM |
| Cc1ccc(S(=O)(=O)Nc2cc(-c3ccc(F)cc3)sc2C(=O)O)cc1 | - | NS3 ATPase | Hepatitis C virus | IC50 | - | - | - | <5 µM |
| CC#Cc1cn([C@@H]2O[C@H](CO)[C@@H](O)[C@@H]2O)c(=O)[nH]c1=O | - | Thymidine kinase | Varicella zoster virus | Ki | - | - | - | 5.19 µM |
| COc1cc(CNc2ccc3nc(N)nc(N)c3c2Cl)cc(OC)c1OC | - | Dihydrofolate reductase | Cryptosporidium parvum | IC50 | - | - | - | 4.61 µM |
| CN1Cc2[nH]cnc2N=C1N | - | Phosphoribosyltransferase | Toxoplasma gondii | Ki | - | - | RH | 290 µM |
| O=P(O)(O)C(Cl)P(=O)(O)O | - | DNA polymerase | Herpes simplex virus 2 | IC50 | - | - | - | >100 µM |
| CCC1CCC(C(=O)N(c2cc(-c3ccccc3)sc2C(=O)O)C(C)C)CC1 | - | NS3 ATPase | Hepatitis C virus | IC50 | - | - | - | <5 µM |
| Nc1cc2[nH]cnc2c(=O)[nH]1 | - | RNA polymerase | Simian rotavirus | inhibition | 500 µM | - | - | 13% |
| CN(C(=O)CCC1CCCC1)c1cc(-c2ccccc2)sc1C(=O)O | - | NS3 ATPase | Hepatitis C virus | IC50 | - | - | - | <5 µM |
| O=c1[nH]c(=O)c2n[nH]nc2[nH]1 | - | Phosphoribosyltransferase | Toxoplasma gondii | inhibition | 900 µM | - | RH | <10% |
| O=C(Nc1nnc(NCC2CCCCC2)s1)c1ccc(Cl)c(Cl)c1 | - | Polymerase | Human cytomegalovirus | IC50 | - | - | - | >25 µM |
| C#Cc1cn([C@H]2C[C@H](O)[C@@H](CO)O2)c(=O)[nH]c1=O | - | Thymidine kinase | Varicella zoster virus | Ki | - | - | - | 1.56 µM |
| O=P(O)(O)C(F)(Cl)P(=O)(O)O | - | DNA polymerase | Epstein-Barr virus | IC50 | - | - | - | >100 µM |
| CN(C(=O)c1cc(-c2ccccc2)sc1C(=O)O)c1ccc(Cl)cc1Cl | - | NS3 ATPase | Hepatitis C virus | IC50 | - | - | - | 5–20 µM |
| Nc1ncnc2c1ncn2C1CCCCC1 | - | Phosphoribosyltransferase | Toxoplasma gondii | inhibition | 900 µM | - | RH | <10% |
| COc1cc(CCc2csc3nc(N)nc(N)c23)c(Br)c(OC)c1OC | - | Dihydrofolate reductase | Cryptosporidium parvum | IC50 | - | - | - | >10 µM |
| O=C(O)C(Cl)P(=O)(O)O | - | DNA polymerase | Epstein-Barr virus | inhibition | 100 µM | - | - | 66% |
| O=C(OC[C@H]1O[C@@H](n2cnc3c(=O)[nH]cnc32)[C@H](O)[C@@H]1O)c1ccc(S(=O)(=O)F)cc1 | - | NTPase/helicase | Dengue virus | inhibition | 300 µM | - | - | 17% |
| CC1(C)N=C(N)N=C(N)N1c1ccc(CCC(=O)Nc2cccc(S(=O)(=O)F)c2)cc1.CCS(=O)(=O)O | - | DHFR | Toxoplasma gondii | IC50 | - | - | RH | 0.067 µM |
| Nc1nc2c(ncn2[C@H]2CC[C@@H](COP(=O)(O)OP(=O)(O)OP(=O)(O)O)O2)c(=O)[nH]1 | nucleotide incorporation / radiometric | Reverse transcriptase | HIV | fold resistance | - | RT-N137H | - | 14 |
| COc1cc(O)c2c(c1)C(=O)c1c(O)c3c(c(OC)c1C2=O)C[C@@H](O)c1cc(C)c(C(=O)N[C@H](C)C(=O)O)c(O)c1-3 | - | Glucosidase | Actinomadura verrucosospora | IC50 | - | - | - | 17 µg/mL |
| CCC(CC)Nc1cc(C(=O)O)ccc1N1C(=O)CCC1(CO)CCN | - | Neuraminidase | Influenza A virus | IC50 | - | - | Subtype N2 | 41 µM |
| Cn1c(=O)[nH]c(=O)c2[nH]c(=O)[nH]c21 | - | Phosphoribosyltransferase | Toxoplasma gondii | inhibition | 900 µM | - | RH | <10% |
| Cc1cc(SC2=C(O)C[C@@](CCc3ccc(O)cc3)(C(C)C)OC2=O)c(C(C)(C)C)cc1CO | - | Cytochrome P450 2D6 | - | inhibition | 10 µM | - | - | 9% |
| COc1cc(O)c2c(c1)C(=O)c1c(cc3c(c1O)-c1c(cc(C)c(C(=O)N[C@H](C)C(=O)O)c1O)[C@H](O)[C@H]3O)C2=O | - | Glucosidase | Actinomadura verrucosospora | IC50 | - | - | - | >100 µg/mL |
| CN1Cc2c(c3c4ccccc4n(C)c3c3c2c2ccccc2n3CCC#N)C1=O | - | Tyrosine kinase | - | IC50 | - | - | - | >10 µM |
| O=c1[nH]c(=O)n([C@@H]2O[C@H](CO)[C@@H](O)[C@H]2O)cc1/C=C/Br | - | Thymidine kinase | Varicella zoster virus | Ki | - | - | - | 4.48 µM |
| Nc1nc(N)c(-c2ccc(Cl)cc2)c(CNc2cccc([N+](=O)[O-])c2)n1 | - | DHFR | Toxoplasma gondii | IC50 | - | - | RH | 1.49 µM |
| Nc1ccc(S(=O)(=O)Nc2ncccn2)cc1 | HPLC | Oxidosqualene cyclase | Pneumocystis carinii | inhibition | 500 µM | - | - | 10% |
| O=c1[nH]c(=O)n([C@@H]2O[C@H](CO)[C@@H](O)[C@@H]2O)cc1/C=C/I | - | Thymidine kinase | Varicella zoster virus | Ki | - | - | - | 0.28 µM |
| O=C(O)C(CCCC12CC3CC(CC(C3)C1)C2)P(=O)(O)O | - | DNA polymerase | Duck hepatitis B virus | IC50 | - | - | - | >100 µM |
| Cn1c2ccccc2c2c3c(c4c5ccccc5n(CC(F)F)c4c21)CNC3=O | - | Tyrosine kinase | - | IC50 | - | - | - | >10 µM |
| CN[C@H]1[C@@H](O[C@@H]2O[C@H](CO)[C@@H](O)[C@H](O)[C@H]2O)[C@H](O)[C@@H](O[C@H]2c3cc(C)c(C(=O)N[C@H](C)C(=O)OC)c(O)c3-c3c(cc4c(c3O)C(=O)c3cc(OC)cc(O)c3C4=O)[C@@H]2O)O[C@H]1C | - | Glucosidase | Actinomadura verrucosospora | IC50 | - | - | - | >100 µg/mL |
| Cc1ccccc1S(=O)(=O)Nc1cc(-c2ccccc2C#N)sc1C(=O)O | - | NS3 ATPase | Hepatitis C virus | IC50 | - | - | - | 5–20 µM |
| O=C(O)C(Br)P(=O)(O)O | - | DNA polymerase | Herpes simplex virus 1 | inhibition | 100 µM | - | - | 87% |
| N#CCCn1c2ccc(O)cc2c2c3c(c4c5cc(O)ccc5[nH]c4c21)C(=O)NC3 | - | Protein kinase C | - | IC50 | - | - | - | 0.044 µM |
| Cc1c(CNc2ccc(C(=O)NC(CC(=O)O)CC(=O)O)cc2)ccc2nc(N)nc(N)c12 | - | DHFR | Toxoplasma gondii | IC50 | - | - | RH | 0.00294 µM |
| O=C(O)C(F)P(=O)(O)O | - | DNA polymerase | Herpes simplex virus 2 | inhibition | 100 µM | - | - | 100% |
| NC(=O)c1ncn([C@@H]2O[C@H](COC(=O)c3ccc(S(=O)(=O)F)cc3)[C@@H](O)[C@H]2O)n1 | - | NTPase/helicase | Dengue virus | inhibition | 300 µM | - | - | 29% |
| Cc1ccccc1S(=O)(=O)Nc1cc(-c2ccc(C#N)cc2)sc1C(=O)O | - | NS3 ATPase | Hepatitis C virus | IC50 | - | - | - | <5 µM |
| CC(Cl)(C(=O)O)P(=O)(O)O | - | DNA polymerase | Herpes simplex virus 1 | inhibition | 100 µM | - | - | 0% |
| COc1ccc(CC2CCc3nc(N)nc(N)c3C2)cc1 | - | Dihydrofolate reductase | Cryptosporidium parvum | IC50 | - | - | - | 0.53 µM |
| CC(F)(C(=O)O)P(=O)(O)O | - | DNA polymerase | Epstein-Barr virus | inhibition | 100 µM | - | - | 42% |
| CCC(CC)Nc1cc(C(=O)O)ccc1N1C(=O)CCC1(CO)CCO | - | Neuraminidase | Influenza A virus | IC50 | - | - | Subtype N1 | >1000 µM |

6 of the rows above, restated:

smiles | method | protein | agent | read-out | dose | mutations | strain | result
O=C(Nc1nnc(NCC2CCCCC2)s1)c1ccc([N+](=O)[O-])o1 | - | Polymerase | Human cytomegalovirus | IC50 | - | - | - | >25 µM
Cc1cc(SC2=C(O)C[C@@](CCc3ccc(O)cc3)(C(C)C)OC2=O)c(C(C)(C)C)cc1CO | - | Cytochrome P450 2D6 | - | inhibition | 10 µM | - | - | 9%
COc1cc(CCc2csc3nc(N)nc(N)c23)c(Br)c(OC)c1OC | - | Dihydrofolate reductase | Cryptosporidium parvum | IC50 | - | - | - | >10 µM
Cc1cn([C@H]2C=C[C@@H](COP(=O)(O)OP(=O)(O)OP(=O)(O)O)O2)c(=O)[nH]c1=O | nucleotide incorporation / radiometric | Reverse transcriptase | HIV | fold resistance | - | RT-N137D | - | 8.4
NC(=O)c1ncn([C@@H]2O[C@H](COC(=O)c3ccc(S(=O)(=O)F)cc3)[C@@H](O)[C@H]2O)n1 | - | NTPase/helicase | Dengue virus | inhibition | 300 µM | - | - | 29%
Cc1ccccc1S(=O)(=O)Nc1cc(-c2ccc(C#N)cc2)sc1C(=O)O | - | NS3 ATPase | Hepatitis C virus | IC50 | - | - | - | <5 µM